In patent US20040063668A1, “Novel acyclic nucleoside phosphonate derivatives, salts thereof and process for the preparation of the same” (priority 2001, published 2004):

Tested on: HBV
Experiment: Pharmacological test on HBV transgenic mouse (serum HBV DNA by PCR)
Type: in vivo, HBV transgenic mice (FVB strain)
Conditions: oral, effect = blood does not contain HBV DNA

PMEA dipivoxil
Result: number of mice showing pharmacological effect/number of total mice (0.4 mg/kg/day for 9 days): 1/6
Result: number of mice showing pharmacological effect/number of total mice (2 mg/kg/day for 9 days): 1/3
